The subject of test [1] is A2058 cells (EGFR-/HER2^+/−). In words: Targeted protein toxin mediated cell killing on A2058 cells.
In test [2] the test system is HeLa cells (EGFR^+/−/HER2^+/−). Nature of the test: Targeted protein toxin mediated cell killing on HeLa cells. As to conditions: read-out: cell killing, IC50; HeLa; titrated on fixed 50 pM trastuzumab-saporin.

This is an account of results in patent US20260000783A1, “ANTIBODY-DRUG CONJUGATE WITH IMPROVED T[…]” (priority 2018, published 2026).

With “Cetuximab-(Cys-L-QSmix) 4,1: QSmix-EMCH conjugated via cysteine residues (Cys) to cetuximab, DAR 4,1”, the cell killing activity result in test [1] (+ 10 pM CD71mab-saporin) and in test [1] (+ 10 pM trastuzumab-saporin) was “no activity” throughout.
As to “cetuximab-(Cys-L-SO1861) 3,7: SO1861-EMCH conjugated via cysteine residues (Cys) to cetuximab, DAR 3,7”, the IC50 in test [2] is 400 nM; in test [1] (read-out: cell killing, IC50, titrated on fixed 50 pM trastuzumab-saporin) it was over 400 nM.

The IC50 is the concentration at which inhibition is half-maximal.
